Results of unrelated studies side by side (data: NIAID ChemDB).

Common to all: tests in culture; agent: Mycobacterium tuberculosis

MIC bound comes from a single tested concentration. ECn is the concentration giving n% inhibition of infection, replication or growth. Rows are shuffled and stem from different studies. Blank or dashed fields: not listed here. Percent inhibition refers to the dose given; in toxicity tests it is the harm to the cells.

| SMILES | strain or isolate | measure | dose | method | result |
|---|---|---|---|---|---|
| CC(C)CN(C[C@@H](O)[C@H](Cc1ccccc1)NC(=O)[C@H](CC(N)=O)NC(=O)c1ccc2ccccc2n1)C(=O)NC(C)(C)C | H37Rv | MIC bound | - | BACTEC | >12.5 µg/mL |
| C=C[C@]1(C)C=C2c3c[nH]c4cccc(c34)C(C)(C)[C@H]2C[C@H]1O | - | MIC | - | - | >100 µM |
| COc1ccc(C(=O)c2oc3cc4occ(C=C5C(=O)NC(=O)NC5=O)c(=O)c4cc3c2C)cc1 | H37Rv | EC90 | - | resazurin | >100 µg/mL |
| O=C(NN=Cc1ccccn1)c1ccc(-n2cc(-c3ccccc3)nn2)cc1O | H37Rv | MIC | - | resazurin | 3.12 µg/mL |
| COc1cccc(/C=C2/Sc3sc(C(C)=O)c(C)[n+]3C2=O)c1O.[Cl-] | H37Rv | MIC bound | - | BACTEC | >12.5 µg/mL |
| COc1nc2ccc(Br)cc2cc1/C=N/NC(=O)c1ccc(-n2cccc2)cc1 | H37Rv | MIC | - | resazurin | 1.6 µg/mL |
| CCN(CC)C(=O)C1CCCN(c2cc3c(cc2[N+](=O)[O-])c(=O)c(C(=O)O)cn3C2CC2)C1 | ATCC35801 | MIC | - | - | 0.09 µM |
| COc1ccc(C(=O)c2oc3cc4occ(C=C5C(=O)NC(=S)NC5=O)c(=O)c4cc3c2C)cc1 | H37Rv | EC90 | - | resazurin | >100 µg/mL |
| CC(=NNC(=O)c1ccc(-n2cc(-c3ccccc3)nn2)cc1O)c1ccccc1F | H37Rv | MIC | - | resazurin | 6.25 µg/mL |
| Cc1cc(N/N=C/c2ccccc2O)c2cccc(C)c2n1 | H37Rv | MIC | - | - | 10 µg/mL |
| O=C(N=Nc1c(O)n(C(c2ccc(Cl)cc2)N2C(=O)C(=O)c3ccccc32)c2ccc(Cl)cc12)c1ccc(-n2cc(-c3ccccc3)nn2)cc1O | H37Rv | MIC | - | resazurin | 0.39 µg/mL |
| COc1ccc2c(=O)cc(-c3ccc(OC)c(O)c3)oc2c1 | H37Rv | inhibition | 128 µg/mL | resazurin | 13.9% |
| O=C(N=Nc1c(O)[nH]c2ccccc12)c1ccc(-n2cc(-c3ccccc3)nn2)cc1O | H37Rv | MIC | - | resazurin | 12.5 µg/mL |
| NCC[C@H](O)C(=O)N[C@@H]1C[C@H](N)[C@@H](O[C@H]2O[C@H](CN)[C@@H](O)[C@H](O)[C@H]2O)[C@H](O)[C@H]1O[C@H]1O[C@H](CO)[C@@H](O)[C@H](N)[C@H]1O | 4R | MIC | - | - | 2.5 µg/mL |
| S=C(S)N(C1CCCCC1)C1CCCCC1 | H37Rv | MIC bound | - | BACTEC | >12.5 µg/mL |
| CCCCN(C(=O)COc1cc2c(O)c3c(O)c(C)c4c(c13)C(=O)[C@@](C)(O/C=C/[C@H](OC)[C@@H](C)[C@@H](OC(C)=O)[C@H](C)[C@H](O)[C@H](C)[C@@H](O)[C@@H](C)/C=C/C=C(/C)C(=O)N2)O4)N1CCCCC1 | - | EC50 | - | - | 0.09 µg/mL |
| O=C(N/N=C/c1ccco1)C(=O)N/N=C/c1ccco1 | H37Rv | MIC bound | - | BACTEC | >12.5 µg/mL |
| CC1CN(c2cc3c(c(N)c2F)c(=O)c(C(=O)O)cn3C2CC2)CC(C)N1S(=O)(=O)c1nnc(N)s1 | H37Rv | MIC | - | - | 10 µg/mL |
| Cn1c(=O)ccn(-c2ccc([N+](=O)[O-])cc2[N+](=O)[O-])c1=O | - | inhibition | 6.25 µg/mL | - | <90% |
| Cc1ccc(C2=Nn3c(nc4sc5c(c4c3=O)CCCC5)SC2)cc1 | H37Rv | MIC bound | - | resazurin | >6.25 µg/mL |
| C=CCCC#CCCCCCCCCCCC(=O)O | - | MIC | - | - | 25 µg/mL |
| NCC(O)c1ccc(O)c(O)c1 | H37Rv | MIC | - | - | 10 µg/mL |
| CCN(C(=O)COc1cc2c(O)c3c(O)c(C)c4c(c13)C(=O)[C@@](C)(O/C=C/[C@H](OC)[C@@H](C)[C@@H](OC(C)=O)[C@H](C)[C@H](O)[C@H](C)[C@@H](O)[C@@H](C)/C=C/C=C(/C)C(=O)N2)O4)N(C)C | - | EC50 | - | - | 0.18 µg/mL |
| CO[C@@]12[C@H](COC(N)=O)C3=C(C(=O)C(C)=C(N)C3=O)N1C[C@H]1[C@@H]2N1C(=O)c1ccc(Cl)c(Cl)c1 | H37Rv | inhibition | 0.5 µM | BACTEC | 98% |
| CO[C@H]1/C=C/O[C@@]2(C)Oc3c(C)c(O)c4c(O)c(cc(OCC(=O)NNc5ccccc5)c4c3C2=O)NC(=O)/C(C)=C\C=C\[C@H](C)[C@H](O)[C@@H](C)[C@@H](O)[C@@H](C)[C@H](OC(C)=O)[C@@H]1C | - | EC50 | - | - | 0.037 µg/mL |
| COc1cc(O)c2c(O)c3c(=O)cc(C)oc3cc2c1 | H37Rv | MIC | - | - | 43 µM |
| COc1nc2ccc(C)cc2cc1/C=N/NC(=O)c1ccc(-n2cccc2)cc1 | H37Rv | MIC | - | resazurin | 1.6 µg/mL |
| COc1ccn(C2OCCC(OC(C)=O)C2O)c(=O)n1 | H37Rv | MIC bound | - | BACTEC | >12.5 µg/mL |
| Cc1c(C(=O)c2ccc(-c3ccccc3)cc2)oc2cc3occ(C=C4C(=O)NC(=O)NC4=O)c(=O)c3cc12 | H37Rv | EC90 | - | resazurin | >100 µg/mL |
| CN(C)c1ccc(C=NNC(=O)c2ccc(-n3cc(-c4ccccc4)nn3)cc2O)cc1 | H37Rv | MIC | - | resazurin | 1.56 µg/mL |
| Cc1cc(=O)oc2cc(O)c(O)cc12 | H37Rv | MIC | - | - | 10 µg/mL |
| COc1cc2c(cc1OC)CN(c1nc3c(cc1[N+](=O)[O-])c(=O)c(C(=O)O)cn3C1CC1)CC2 | ATCC35801 | MIC | - | - | 0.19 µM |
| CCCCC[C@@H](C/C=C/CCC(=O)O)OC | - | inhibition | 6.25 µg/mL | - | 0% |
| O=C(O)c1cn(C2CC2)c2cc(N3CCN(C(=O)C4COc5ccccc5O4)CC3)c(F)cc2c1=O | ATCC35801 | MIC | - | - | 3.17 µM |
| COc1ccc(-c2csc(NC(c3ccc(N(C)C)cc3)C3CCCCC3=O)n2)cc1 | H37Rv | MIC | - | broth dilution / agar / visual reading | 50 µg/mL |
| O=C(O)c1cn(C2CC2)c2cc(N3CCN(Cc4ccc5c(c4)OCO5)CC3)c(F)cc2c1=O | ATCC35801 | MIC | - | - | 0.19 µM |
| COC1=C[C@@H]2[C@@H]3Cc4ccc(OC)c(O)c4[C@]2(CCN3C)CC1=O | H37Rv | MIC | - | BACTEC | ≥12.8 µg/mL |
| NC(N)=NC[C@H]1C[C@@H](C(=O)O)C[C@@H]1N=C(N)N | TMC 125 (aoyama) | MIC | - | - | 12.5 µg/mL |
| CC(C)(C)n1cc(C(=O)O)c(=O)c2cc([N+](=O)[O-])c(N3CCC(n4c(=O)[nH]c5cc(Cl)ccc54)CC3)cc21 | ATCC35801 | MIC | - | - | 1.52 µM |
| O=c1[nH]c(=O)n(-c2ccc([N+](=O)[O-])cc2)cc1F | - | inhibition | 6.25 µg/mL | - | <90% |
| CCCCN(C(=O)COc1cc2c(O)c3c(O)c(C)c4c(c13)C(=O)[C@@](C)(O/C=C/[C@H](OC)[C@@H](C)[C@@H](OC(C)=O)[C@H](C)[C@H](O)[C@H](C)[C@@H](O)[C@@H](C)/C=C/C=C(/C)C(=O)N2)O4)N(CCC)CCC | - | EC50 | - | - | 0.09 µg/mL |
| COc1ccc(CC2COC(=O)C2Cc2ccc3c(c2)OCO3)cc1OC | H37Rv | inhibition | 128 µg/mL | resazurin | 67% |
| CCCCC1CCCCCCc2[nH]c(/C=C3\N=C(c4ccc[nH]4)C=C3OC)cc21.Cl | ETA-R | MIC | - | - | 6.3 µg/mL |
| CO[C@H]1/C=C/O[C@@]2(C)Oc3c(C)c(O)c4c(O)c(c(/C=N/N5CCN(C)CC5)c(O)c4c3C2=O)NC(=O)/C(C)=C\C=C\[C@H](C)[C@H](O)[C@@H](C)[C@@H](O)[C@@H](C)[C@H](OC(C)=O)[C@@H]1C | - | MIC | - | - | 0.5 µg/mL |
| N#Cc1cn(-c2ccc([N+](=O)[O-])cc2[N+](=O)[O-])c(=O)[nH]c1=O | - | inhibition | 6.25 µg/mL | - | <90% |
| NNC(=O)c1ccncc1 | H37Rv | MIC | - | - | 0.46 µM |
| COc1cc2c(c(OC)c1OC)-c1ccc(O)c(=O)cc1[C@@H](NC(C)=O)CC2 | H37Rv | MIC | - | BACTEC | ≥128 µg/mL |
| CC(=O)Nc1nnc(S(=O)(=O)N2C(C)CN(c3c(F)c(NC(C)=O)c4c(=O)c(C(=O)O)cn(C5CC5)c4c3F)CC2C)s1 | H37Rv | MIC | - | - | 10 µg/mL |
| Cn1c(=O)c2c(=O)n3ccccc3nc2n(C)c1=O | H37Rv | MIC bound | - | resazurin | >6.25 µg/mL |
| COc1c(N2CCN(S(=O)(=O)c3nnc(N)s3)C(C)C2)c(F)cc2c(=O)c(C(=O)O)cn(C3CC3)c12 | H37Rv | MIC | - | - | 10 µg/mL |
| Cc1ccc(-c2csc(NC(c3cccc([N+](=O)[O-])c3)C3CCCCC3=O)n2)cc1 | H37Rv | MIC | - | broth dilution / agar / visual reading | 50 µg/mL |
| CO[C@H]1/C=C/O[C@@]2(C)Oc3c(C)c(O)c4c(O)c(cc(OCC(=O)NN5CCOCC5)c4c3C2=O)NC(=O)/C(C)=C\C=C\[C@H](C)[C@H](O)[C@@H](C)[C@@H](O)[C@@H](C)[C@H](OC(C)=O)[C@@H]1C | - | EC50 | - | - | 0.45 µg/mL |
| Cc1ccc(NC(=O)Nc2ccc(C)c(NC(=O)Nc3ccc(C)c(Cl)c3)c2)cc1Cl | H37Rv | inhibition | 12.5 µg/mL | BACTEC | 85% |
| CC1COc2c(N3CCN(C)CC3)c(F)cc3c(=O)c(C(=O)O)cn1c23 | 1773-6 | MIC | - | - | 0.5 µg/mL |
| CCN(CC)c1ccc2nc3ccc(N=Nc4ccc(N(C)C)cc4)cc3[n+](-c3ccccc3)c2c1 | H37Rv | MIC | - | resazurin | 0.78 µg/mL |
| O=C(NN=Cc1ccc(Cl)cc1)c1ccc(-n2cc(-c3ccccc3)nn2)cc1O | H37Rv | MIC | - | resazurin | 6.25 µg/mL |
| CNc1nc(C(N)=O)c(N)s1 | H37Rv | inhibition | 12.5 µg/mL | BACTEC | -10% |
| COc1ccc(-c2csc(NC(c3ccc(F)cc3)C3CCCCC3=O)n2)cc1 | H37Rv | MIC | - | broth dilution / agar / visual reading | 50 µg/mL |
| COc1cccc2c(N/N=C/c3ccccc3O)cc(C)nc12 | H37Rv | MIC | - | - | 10 µg/mL |
| Cc1cn(-c2ccc([N+](=O)[O-])cc2[N+](=O)[O-])c(=O)[nH]c1=O | - | inhibition | 6.25 µg/mL | - | <90% |
| O=C(NN=Cc1ccc(F)cc1)c1ccc(-n2cc(-c3ccccc3)nn2)cc1O | H37Rv | MIC | - | resazurin | 3.12 µg/mL |
| COc1ccc2c(c1)n([O-])c1ccccc1[n+]2=O | H37Rv | inhibition | 12.5 µg/mL | BACTEC | 99% |
| Cc1c(F)c(N2CCNC(C)C2)cc2c1c(=O)c(C(=O)O)cn2C1CC1 | Clinical strain | MIC | - | - | 0.5 µg/mL |
| COc1nc2ccc(Br)cc2cc1C1C(Cl)C(=O)N1NC(=O)c1ccc(-n2cccc2)cc1 | H37Rv | MIC | - | resazurin | 6.25 µg/mL |
| NNC(=O)c1cccc2c1Oc1ccccc1S2 | H37Rv | MIC bound | - | BACTEC | >12.5 µg/mL |
| COc1cc(OC)c2c(O)c3c(=O)cc(C)oc3c(-c3c(O)c4c(O)cc(C)oc4c4c(OC)cc(=O)cc34)c2c1 | H37Rv | MIC | - | - | 21.5 µM |
| O=c1oc2nc3ccc(Cl)cc3c(=O)n2c2ccc(Cl)cc12 | H37Rv | inhibition | 12.5 µg/mL | BACTEC | 15% |
| C[C@H]1CCC2C(C)(C)CCC[C@]23Oc2ccc(O)c(Cl)c2C[C@]13C | H37Rv | EC50 | - | - | >6.25 µg/mL |
| CC(=O)N1C(=O)C2(Nc3cccnc3N2)c2ccccc21 | H37Rv | MIC bound | - | BACTEC | >12.8 µg/mL |
| O=c1[nH]c(=O)n(CCO)cc1[N+](=O)[O-] | - | inhibition | 6.25 µg/mL | - | <90% |
| OCC(Cc1ccc2c(c1)OCO2)C(CO)Cc1ccc2c(c1)OCO2 | H37Rv | inhibition | 128 µg/mL | resazurin | 65% |
| C/C(=N\NC(=O)c1ccncc1)c1cc2ccccc2oc1=O | H37Rv | MIC | - | broth dilution | 50 µg/mL |
| CCCCSc1ccc2n(c1)cc(-c1ccc(/C=N/NC(=O)c3ccc(C(=O)N/N=C/c4ccc(-c5cn6cc(SCCCC)ccc6[n+]5C)cc4)cc3)cc1)[n+]2C.Cc1ccc(S(=O)(=O)[O-])cc1 | H37Rv | MIC bound | - | BACTEC | >12.5 µg/mL |
| COc1nc2ccccc2cc1/C=N/NC(=O)c1ccncc1 | H37Rv | MIC | - | resazurin | 6.25 µg/mL |
| C[C@H]1COC2(CCN(S(=O)(=O)c3cc(-[n+]4ccc(O)cc4)cc(C(F)(F)F)c3)CC2)O1 | H37Rv | MIC | - | resazurin | >50 µM |
| CC(=O)NCCSS(=O)(=O)CCCCS(=O)(=O)SCCNC(C)=O | H37Rv | MIC bound | - | BACTEC | >12.5 µg/mL |
| O=C(NN=Cc1ccc2c(c1)OCO2)c1ccc(-n2cc(-c3ccccc3)nn2)cc1O | H37Rv | MIC | - | resazurin | 12.5 µg/mL |

For reference, 5 entries again:

SMILES | strain or isolate | measure | dose | method | result
NC(N)=NC[C@H]1C[C@@H](C(=O)O)C[C@@H]1N=C(N)N | TMC 125 (aoyama) | MIC | - | - | 12.5 µg/mL
O=C(N=Nc1c(O)n(C(c2ccc(Cl)cc2)N2C(=O)C(=O)c3ccccc32)c2ccc(Cl)cc12)c1ccc(-n2cc(-c3ccccc3)nn2)cc1O | H37Rv | MIC | - | resazurin | 0.39 µg/mL
COc1ccc(-c2csc(NC(c3ccc(N(C)C)cc3)C3CCCCC3=O)n2)cc1 | H37Rv | MIC | - | broth dilution / agar / visual reading | 50 µg/mL
CC(=O)Nc1nnc(S(=O)(=O)N2C(C)CN(c3c(F)c(NC(C)=O)c4c(=O)c(C(=O)O)cn(C5CC5)c4c3F)CC2C)s1 | H37Rv | MIC | - | - | 10 µg/mL
CCCCC[C@@H](C/C=C/CCC(=O)O)OC | - | inhibition | 6.25 µg/mL | - | 0%